Here are results for one substance from article PMC10819887, “Production of AFB1 High-Specificity Monoclonal Antibody by Three-Stage Screening Combined with the De-Homologation of Antibodies and the Development of High-Throughput icELISA” (Toxins, 2023).

“And” between values parts separate entries of the source, which are not always exact repeats. Identical values can stand only once.

The data set has as its system ZFG8 monoclonal antibody. Further details: species or system mouse.

Take aflatoxin B1 [AFB1]: the “ELISA Recovery (%)” value is 107% and 95% and 93% and 90% and 92% and 84%.
